Source: paper PMC10689320 (Dermatology and Therapy, 2023)

Assay: Safety: adverse event monitoring
Format: in vivo, healthy Chinese subjects
Conditions: whole study

Deucravacitinib
electrocardiogram results and vital signs: No clinically significant abnormal electrocardiogram results or changes in vital signs were observed
